In PMC5357622, “Chelation Motifs Affecting Metal-dependent Viral Enzymes: N′-acylhydrazone Ligands as Dual Target Inhibitors of HIV-1 Integrase and Reverse Transcriptase Ribonuclease H Domain” (Frontiers in Microbiology, 2017):

Target: T1, HIV-1 RT-associated RNase H (Human immunodeficiency virus type 1 group M subtype B, UniProt P03366)
T1 construct: Human immunodeficiency virus type 1 heterodimeric RT was expressed and purified; made in house
Assay: HIV-1 RT-associated RNase H assay (fluorescent RNA/DNA hybrid)
Assay type: biochemical
Method: Human immunodeficiency virus type 1 heterodimeric RT was expressed and purified as previously described ([Esposito et al., 2011]; [Meleddu et al., 2014]). The HIV-1 RT-associated RNase H activity was measured as described ([Corona et al., 2014a]; [Meleddu et al., 2015]). Briefly, 20 ng of HIV-1 RT was incubated in 100 μL reaction volume containing 50 mM Tris-HCl (pH 7.8), 6 mM MgCl2, 1 mM DTT, 80 mM KCl, hybrid RNA/DNA (5′-[…]-3′-Fluorescein, 5′-[…]-3′-Dabcyl) and 2 nM RT. The reaction mixture was incubated for 1 h at 37°C; the reaction was stopped by addition of EDTA and products were measured with a Victor 3 (Perkin Elmer model 1420-051) equipped with filters for 490/528 nm (excitation/emission wavelength).

With `Cc1nnc(C(=O)NC(C)(C)c2nc(C(=O)NCc3ccc(F)cc3)c(O)c(=O)n2C)o1` [RAL, raltegravir, reference compound] as the molecule, how does the IC50 read?
Its IC50 is greater than 50 µM.
